Experimental data published in publication PMC8125995, “In Vitro Antiplasmodial and Cytotoxic Activities of Compounds from the Roots of Eriosema montanum Baker f. (Fabaceae)” (Molecules, 2021).

Test system: 3D7 strain of Plasmodium falciparum
Test: In vitro antiplasmodial activity (SYBR Green, 48 h)
Type: cell-based
Settings: SI = CC50 (THP-1) / IC50 (P. falciparum 3D7)
Protocol: Continuous in vitro cultures of asexual erythrocyte stages of P. falciparum, chloroquine-sensitive 3D7 strain was maintained according to the procedure of Trager and Jensen. Strains were obtained from ATCC, Bei Resources. The host cells were human red blood cells (A+). […] Compound stock solutions were prepared in DMSO at 10 mg/mL (for an extract) and 1 mg/mL (for an isolated compound). Then, the solution is directly diluted in the medium; each test sample was applied in a series of eight 2-fold dilutions in a 96-well plate, starting with 100 µg/mL and 10 µg/mL for the crude extract and purified compounds, respectively, and tested in triplicate. The effect of compounds on the parasite growth was estimated, after 48 h incubation, by using the SYBR Green, a DNA intercalating compound. Artemisinin (Sigma-Aldrich, Machelen, Belgium), at an initial concentration of 100 ng/mL, was used as positive control in all experiments. The half-maximal inhibitory concentration (IC50) values were calculated from graphs.

Row | Structure (SMILES) | SI
1 | O=C(O)C[C@](O)(Cc1ccc(O)cc1)C(=O)O [Compound 1, eucomic acid] | 6577
2 | COc1cc(OC2OC(CO)C(O)C(O)C2O)cc2occ(-c3ccc(O)cc3)c(=O)c12 (centres unmarked) [Compound 2, 7-O-glucopyranosyl-isoprunetin] | 2846.9
3 | O=c1c(-c2ccc(O)cc2)coc2cc(O[C@@H]3O[C@H](CO)[C@@H](O)[C@H](O)[C@H]3O)cc(O)c12 [Compound 3, genistin] | 24.9
4 | COc1cc(O)cc2occ(-c3ccc(O)cc3)c(=O)c12 [Compound 5, isoprunetin] | 5264.3
5 | O=c1c(-c2ccc(O)c(O)c2)coc2cc(O)cc(O)c12 [Compound 6, Isoluteolin] | 2005.8
